# Replication capacity of HIV-1 mutants, p6*

Source: Al-Mawsawi et al. 2014 (doi:10.1186/s12977-014-0124-6), supplementary data.

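Random point mutant libraries of HIV-1 NL4-3, one for each of seven fragments, were passaged in CEM T lymphocytes. Sequencing gave the RC index: frequency after two rounds over frequency in the input plasmid.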

Protein: p6* of HIV-1 NL4-3, numbered from its first residue. This is p6* (p6pol) in the Gag-Pol frame, not Gag p6; residue 1 starts at base 2109, after the 8-residue transframe peptide. The source prints no sequence; the chain below is taken from UniProt P12497, a closely related isolate, and fits the source at the 45 positions it covers.
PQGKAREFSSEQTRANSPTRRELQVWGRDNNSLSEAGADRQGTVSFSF
The overlapping Gag p6 frame may change too; the source does not say.
"Other frame" gives the effect on an overlapping gene as the source lists it; other overlaps (genes, RNA elements) are not shown.

Values are the RC index; higher means better tolerated. The authors read about 0.1 or less as lethal, 0.1-0.2 as attenuated and 0.2 or more as tolerated. Each entry names the wild-type residue, its position and the residue put in its place. Clones carried about five changes per kilobase, which can drag down the index of neutral changes. Base changes are numbered along pNL4-3. The authors read an index above 1 as above wild type (1.9% of all changes in the genome).

With N30S (base A2197G) the assay gave 0.0584.
With T13S (base C2146G) the assay gave 0.0673.
With L33F (base C2205T) the assay gave 0.183.
With R6W (base A2124T, other frame Gag silent) the assay gave 0.0307.
With P1T (base C2109A, other frame Gag silent) the assay gave 0.0492.
With E11K (base G2139A) the assay gave 0.106.
With D29N (base G2193A) the assay gave 0.278.
With T19P (base A2163C) the assay gave 0.0678.
With V44L (base G2238T) the assay gave 0.126.
With E35D (base A2213T) the assay gave 0.0539.
With L23I (base C2175A) the assay gave 0.0663.
With F48L (base T2250C) the assay gave 0.0747.
With A36E (base C2215A) the assay gave 0.0858.
With R40G (base A2226G) the assay gave 0.0651.
With N30K (base C2198A) the assay gave 0.145.
With R14S (base A2150T) the assay gave 0.0384.
With E22D (base G2174T) the assay gave 0.103.
With S47C (base A2247T) the assay gave 0.0327.
With D29Y (base G2193T) the assay gave 0.137.
With D39V (base A2224T) the assay gave 0.0262.
With P18L (base C2161T) the assay gave 0.0621.
With R40K (base G2227A) the assay gave 0.215.
With R20K (base G2167A) the assay gave 0.245.
With F46S (base T2245C) the assay gave 0.0692.
With V25D (base T2182A) the assay gave 0.0559.
With S32A (base T2202G) the assay gave 0.0472.
With R21S (base A2171T) the assay gave 0.0239.
With S45F (base C2242T) the assay gave 0.290.
With D29H (base G2193C) the assay gave 0.0136.
With F48I (base T2250A) the assay gave 0.0314.
With E35Q (base G2211C) the assay gave 0.0310.
With A15S (base G2151T) the assay gave 0.0452.
With W26C (base G2186T) the assay gave 0.185.
With T19A (base A2163G) the assay gave 0.0488.
With G37E (base G2218A) the assay gave 0.0740.
With K4E (base A2118G, other frame Gag silent) the assay gave 0.0507.
With G27V (base G2188T) the assay gave 0.194.
With R21G (base A2169G) the assay gave 0.0257.
With N31D (base A2199G) the assay gave 0.0776.
With D29V (base A2194T) the assay gave 0.0217.
With S17C (base A2157T) the assay gave 0.0482.